# Reference: ChEMBL document CHEMBL3244044, “Synthesis and antitumor activity of halogen-substituted 4-(3,3-dimethyl-1-triazeno)quinolines” (J Med Chem, 1978)
# Columns and labels:
# Conditions in all cases: in vivo, 216 h
# [1] = system: Mus musculus; assay: Toxicity in mouse B16 cells allografted mouse at 77.8 mg/kg, ip qd for 9 days
# [2] = system: Mus musculus; assay: Toxicity in mouse B16 cells allografted mouse at 216 mg/kg, ip qd for 9 days; type: organism-based; design: dose 216 mg/kg, route intraperitoneal
# In short: (§1)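 Mice bearing B16 melanoma, dosed ip once daily for 9 days from 24 h after tumor implantation. Toxicity is recorded as the average body weight change at the end of drug treatment.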
# [3] = system: Mus musculus; assay: Toxicity in mouse B16 cells allografted mouse at 130 mg/kg, ip qd for 9 days; type: organism-based; design: dose 130 mg/kg, route intraperitoneal; in short: as §1
smiles,measurement,setting,value
NC(=O)c1nc[nH]c1/N=N/N(CCCl)CCCl,Activity,[1],-2.3%
same,Activity,[2],-3.7%
same,Activity,[3],-2.9%
